Assay results published in article PMC6265350.

Target: T1, MtrA Y102C~P (UniProt P9WGM7)
T1 sequence (looked up, limits assumed): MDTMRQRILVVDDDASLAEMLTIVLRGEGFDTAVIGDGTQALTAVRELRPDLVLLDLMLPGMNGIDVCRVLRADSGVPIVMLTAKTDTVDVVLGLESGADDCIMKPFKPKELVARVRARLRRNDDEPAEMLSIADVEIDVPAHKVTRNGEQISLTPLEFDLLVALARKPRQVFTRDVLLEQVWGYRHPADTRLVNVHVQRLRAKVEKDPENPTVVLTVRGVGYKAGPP
Test: EMSA
Settings: 50 mM Tris-HCl pH 7.5, 50 mM NaCl, 10 mM MgCl2, 10 mM CaCl2, […]; recombinant protein; protein details: MBP fusion; label: FAM; probe letters rebuilt from the primers and the genome; part of a longer molecule

CTTCAAGCTCCGTTTCTCACCGCGTCCTCATCACGGCCACCGCAACGCCAAATCACCATCAACCAGACAAGCACAGACCTGTGCACCATGCTGAGTAACTACCGTCTCGGACAGCAAATGGCCAGGTGGAGCCGCGTTTGCCTGATCCAGGCTCACGCGTGGCGAGCGTAACGCCACTGCGAA (double strand) [PbetP]
binding result: binds

Construct, isoform or probe ends are uncertain for at least one entry. At least one verdict was read from the data and is not stated in words by the source. Tags and fusion partners may be left off the protein sequences shown.
